These results are taken from PMC5887915.

The test concerns the target HLA-A*0201 (alpha-chain refolded with beta2m). The test can be described thus: circular dichroism thermal melting.

As for “LLW peptide ([…]), Yellow Fever virus Non-Structural protein 4b 214-222”, the Tm (melting temperature of the peptide-HLA complex) came out at 66.5 °C.
